# Values from PubChem BioAssay AID1259414 (Drosophila RNAi Screening Center, 2018).
# Purpose: 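Fly genes that alter Wolbachia amount inside host cells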 (primary screen)
# Cells: Drosophila JW18 cells infected with Wolbachia
# Reagents: long dsRNA against Drosophila genes, 0.25 µg dsRNA per well of a 384-well plate
# Duration: 5 days
# Conditions: cells persistently infected with Wolbachia before knock-down; no added drug
# Measurement: 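Imaged fluorescence in situ signal for Wolbachia 23S rRNA per DAPI-counted host cell, given as a robust z-score within each plate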
# Direction: Wolbachia per cell robust z: higher = more Wolbachia per host cell than the plate typical
# Active means: 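Hit when robust z is 1.5 or more, or -1.5 or less, in at least two of three replicates; excludes dsRNAs with several or no targets, genes not expressed in JW18 and well A1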
# In all, the deposit lists about 24,000 reagents; this is a random part of those with a known target gene and a result. Over the whole deposit, about 1,210 (5%) are marked active. 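Inactive calls also include excluded dsRNAs with several or no targets, genes unexpressed in JW18, and well A1, regardless of score.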 A number with no mark means an inactive call. The numbers tell different reagents against one gene apart.
predicted target,reagent,"Wolbachia per cell robust z, rep 1","Wolbachia per cell robust z, rep 2","Wolbachia per cell robust z, rep 3"
yki (yorkie),1,0.931,0.595,1.24
yki (yorkie),2,0.622,-0.797,-0.518
yki (yorkie),3,0.0507,0.103,-2.56
CG15385,1,0.541,0.207,-3.64
Jon65Aiv (Jonah 65Aiv),1,-0.526,-0.736,-1.58
Jon65Aiv (Jonah 65Aiv),2,0.793,-3.99,-0.536
Slip1 (SLo interacting protein 1),1,-0.275,0.364,1.14
NimA (Nimrod A),1,-0.729,-1.51,-2.51
NimA (Nimrod A),2,1.01,0.79,-0.55
NimA (Nimrod A),3,0.827,0.296,0.118
NimA (Nimrod A),4,0.475,-1.88,0.678
CG42382,1,1.31,-4.17,0.317
CG9550,1,-0.902,0.6,-0.0201
CG9550,2,-0.478,-0.389,1.3
p38a (p38a MAP kinase),1,-5.28 (active),0.661,-5.59
"ATPsynD (ATP synthase, subunit D)",1,1.01,1.07,0.343
"ATPsynD (ATP synthase, subunit D)",2,-0.526 (active),2.1,2.34
CG34376,1,-1.12,0.0992,-1.13
CG34376,2,0.355,-0.162,-0.623
CG34376,3,-0.126,0.248,0.895
CG34376,4,0.0023,0.347,1.55
bur (burgundy),1,-2.02,0.739,0.689
CG10650,1,-0.564,0.0157,-7.88
CG18171,1,0.325,-0.878,-3.29
CG18171,2,-2.94,-0.014,-0.898
CG4793,1,1.89,-0.197,1.49
CG14070,1,1.36,-1.86,1
Clc (Clathrin light chain),1,-0.82,0.0965,-1.08
Clc (Clathrin light chain),2,1.18,3.95,-2.08
sosie,1,-0.557,-0.82,-0.585
sosie,2,1.06,0.857,1.19
sosie,3,0.507,-0.837,-0.282
inaF-C,1,1.76,0.456,0.248
"Pka-R2 (Protein kinase, cAMP-dependent, regulatory subunit type 2)",1,-4.43 (active),-2.27,-1.76
"Pka-R2 (Protein kinase, cAMP-dependent, regulatory subunit type 2)",2,-0.706,-1.18,-0.354
CG3544,1,1.32,1.2,0.298
l(3)07882 (lethal (3) 07882),1,-0.0457,-0.679,-0.255
CG1529,1,0.797,0.103,-0.408
CG1529,2,1.64,1.26,0.609
Aldh-III (Aldehyde dehydrogenase type III),1,0.308 (active),-3.7,-3.26
Aldh-III (Aldehyde dehydrogenase type III),2,-2.28 (active),-1.82,-1.76
CG11663,1,0.788,0,1.02
CG16890,1,1.76,-0.196,1.04
CG16890,2,0.335,0.586,0.402
CG5882,1,-3.31,0.607,1.39
Or45a (Odorant receptor 45a),1,0.845,-0.76,-2.68
Or45a (Odorant receptor 45a),2,-2.12,-1.7,-1.6
